In patent publication US20120244144A1 (University of Texas, published 2012):

How the values were obtained:
Experiment in all cases: Western blot
[1] = target: pertussis toxin subunit S5 (Bordetella pertussis, UniProt P04981 35-133)
[2] = target: pertussis toxin subunit S3 (Bordetella pertussis, UniProt P04979 29-227)
[3] = target: pertussis toxin subunit S4 (Bordetella pertussis, UniProt P0A3R5 43-152)
[4] = target: pertussis toxin subunit S2 (Bordetella pertussis, UniProt P04978 28-226)

Measured: binding result

B1: hu1B7 humanized single-chain antibody (scAb) (scFv, not shown: a dimerising Fc or GST)
scFv: DIQMTQSPSSLSASVGDRVTITCSASSSVSFMYWYQQKPGKAPKLLIYLTSNLPSGVPSRFSGFGSGTDYTLTISSLQPEDFATYYCQQWSSHPPTFGQGTKVEIKRTGGGGSGGGGSGGGGSGGGGSEVQLVESGGGLVQPGGSLRLSCAASGYKFTSYWMHWVRQAPGKGLEWVGNIFPGSGSTNYDEKFNSRFTISVDTSKNTAYLQMNSLRAEDTAVYYCTRWLSGAYFDYWGQGTLVTVSS
notes: also called WT hu1B7
no binding: [1] | [2] | [3]

B2: m1B7 murine single-chain antibody (scAb) (scFv, not shown: a dimerising Fc or GST)
scFv: DIQMTQSPALMSASPGEKVTMTCSASSSVSFMYWYQQKPRSSPKPWIYLTSNLPSGVPARFSGSGSGTSYSLTISSMEAEDAATYYCQQWSSHPPTFGSGTKLEIKRGGGGSGGGGSGGGGSGGGGSEVQLQQSGSELVRPGASVKLSCKASGYKFTSYWMHWVKQRPGQGLEWIGNIFPGSGSTNYDEKFNSKATLTVDTSSNTAYMQLSSLTSEDSAVYYCTRWLSGAYFDYWGQGTTLTVSSASGA
no binding: [1] | [2] | [4] | [3]
